Data published in patent publication US11597726B2 (Certego Therapeutics Inc., priority 2020, dated 2023).

Tested on: c-fos
Experiment: Pharmacomapping: whole-brain drug-evoked c-fos activation
[1] = gaboxadol at 30 mg/kg and higher, d2-gaboxadol at 10 mg/kg and higher
[2] = gaboxadol at 10 and 20 mg/kg, d2-gaboxadol at 6 mg/kg

Structure (SMILES)	activation of dorsal and ventral anterior cingulate cortex (ACAd and ACAv) [1]	activation of dorsal and ventral anterior cingulate cortex (ACAd and ACAv) [2]
[2H]C1([2H])NCCc2c1o[nH]c2=O [d2-gaboxadol 7,7, 4,5,6,7-tetrahydroisoxazolo[5,4-c]pyridin-3(2H)-one-7,7-d2]	strongly diminished	strong activation
Oc1noc2c1CCNC2 [gaboxadol, 4,5,6,7-tetrahydroisoxazolo (5,4-c) pyridin-3-ol]	strongly diminished	strong activation
